Read-outs that look alike come from different tables or passages of the source.
What was measured:
[1] = system: Mycobacterium tuberculosis strain 331/88 (i.e., H37Rv); assay: MIC micromethod in Šula's medium, drug-susceptible Mtb.; assay type: cell-based
[2] = system: Mycobacterium kansasii 6509/96 (clinical isolate); assay: MIC micromethod in Šula's medium, M. kansasii; assay type: cell-based; details: SI = IC50 (HepG2)/MIC

SMILES: COC(=O)/C(C)=N/NC(=O)c1ccncc1 [3a, Methyl (E)-2-(2-isonicotinoylhydrazineylidene)propanoate]
- SI for Mtb. 331/88 ([1]; SI = IC50 (HepG2)/MIC): ≥4000
- SI for M. kansasii 6509/96 [2]: ≥125

SMILES: C/C(=N\NC(=O)c1ccncc1)C(=O)Oc1ccc(C)cc1 [3c, p-Tolyl (E)-2-(2-isonicotinoylhydrazineylidene)propanoate]
- SI for Mtb. 331/88 ([1]; SI = IC50 (HepG2)/MIC): ≥2000
- SI for M. kansasii 6509/96 [2]: ≥125

SMILES: C/C(=N\NC(=O)c1ccncc1)C(=O)Oc1ccc(Oc2ccccc2)cc1 [3e, 4-Phenoxyphenyl (E)-2-(2-isonicotinoylhydrazineylidene)propanoate]
- SI for Mtb. 331/88 ([1]; SI = IC50 (HepG2)/MIC): ≥1102
- SI for M. kansasii 6509/96 [2]: ≥137.8

SMILES: C/C(=N\NC(=O)c1ccncc1)C(=O)Oc1ccc(F)cc1 [3f, 4-Fluorophenyl (E)-2-(2-isonicotinoylhydrazineylidene)propanoate]
- SI for Mtb. 331/88 ([1]; SI = IC50 (HepG2)/MIC): ≥2000
- SI for M. kansasii 6509/96 [2]: ≥250

SMILES: C/C(=N\NC(=O)c1ccncc1)C(=O)Oc1ccc(Br)cc1 [3h, 4-Bromophenyl (E)-2-(2-isonicotinoylhydrazineylidene)propanoate]
- SI for Mtb. 331/88 ([1]; SI = IC50 (HepG2)/MIC): ≥4000
- SI for M. kansasii 6509/96 [2]: ≥62.5

SMILES: C/C(=N\NC(=O)c1ccncc1)C(=O)Oc1cc(C(C)C)ccc1C [3l, 2-Isopropyl-5-methyphenyl (E)-2-(2-isonicotinoylhydrazineylidene)propanoate]
- SI for Mtb. 331/88 [1]: >4000
- SI for M. kansasii 6509/96 [2]: >4000

SMILES: C/C(=N\NC(=O)c1ccncc1)C(=O)Oc1cccc2cccnc12 [3m, Quinolin-8-yl (E)-2-(2-isonicotinoylhydrazineylidene)propanoate]
- SI for Mtb. 331/88 [1]: ≥493
- SI for M. kansasii 6509/96 [2]: ≥61.7

SMILES: C/C(=N\NC(=O)c1ccncc1)C(=O)OCc1ccncc1 [3n, Pyridin-4-ylmethyl (E)-2-(2-isonicotinoylhydrazineylidene)propanoate]
- SI for Mtb. 331/88 ([1]; SI = IC50 (HepG2)/MIC): ≥1000
- SI for M. kansasii 6509/96 [2]: ≥62.5

SMILES: C/C(=N\NC(=O)c1ccncc1)C(=O)Oc1cc(Cl)ccc1Oc1ccc(Cl)cc1Cl [3o, 5-Chloro-2-(2,4-dichlorophenoxy)phenyl (E)-2-(2-isonicotinoylhydrazineylidene)propanoate]
- SI for Mtb. 331/88 [1]: 1687
- SI for M. kansasii 6509/96 [2]: ≥26.4

SMILES: CCSC(=O)/C(C)=N/NC(=O)c1ccncc1 [3r, S-Ethyl (E)-2-(2-isonicotinoylhydrazineylidene)propanethioate]
- SI for M. kansasii 6509/96 [2]: ≥250

SMILES: NNC(=O)c1ccncc1 [INH 1, Isoniazid, reference compound]
- SI for Mtb. 331/88 ([1]; SI = IC50 (HepG2)/MIC): >1000
- SI for M. kansasii 6509/96 [2]: ≥62.5
